Anti-infective test results gathered from many reports (values: NIAID ChemDB through PubChem).

Shared fields: tests in culture; organism: HIV-1; read by: XTT; read-out: EC50

ECn is the concentration giving n% inhibition of infection, replication or growth. Neighbouring rows are from separate reports. An empty or dashed field is not shown.

smiles | cells | changes | strain | result
Cc1cc(C)cc(Sc2c(C(C)C)c(=O)[nH]c(=O)n2CC2=CCCC2)c1 | CEM |  | IIIB | 0.002 µM
C[C@H]1CO[C@@H]2CN3C=C(C(=O)NCc4cnc5ccccn45)C(=O)C(=O)C3C(=O)N12 | CEM-SS |  | IIIB | 0.0294 µM
CC(=O)NS(=O)(=O)c1ccc(NC(=O)c2ccccc2SSc2ccccc2C(=O)Nc2ccc(S(=O)(=O)NC(C)=O)cc2)cc1 | CEM |  |  | 16 µM
CC(=O)OCC1OC(SC2C(SC(C)=O)OC(COC(C)=O)C(OC(C)=O)C2OC(C)=O)C(OC(C)=O)C(OC(C)=O)C1OC(C)=O | CEM |  |  | 48 µg/mL
C[C@@H]1CO[C@@]23CCC[C@@H]2N2C=C(C(=O)NCc4c(F)cc(F)nc4F)C(=O)C(=O)C2C(=O)N13 | CEM-SS |  | IIIB | 0.0667 µM
O=C(NC(C(=O)O)c1ccccc1)c1ccccc1SSc1ccccc1C(=O)NC(C(=O)O)c1ccccc1 | CEM |  |  | >100 µM
Cc1cc(C)cc(Oc2c(C(C)C)c(=O)[nH]c(=O)n2CC2CC2)c1 | CEM |  | IIIB | 0.0002 µM
Nc1ncnc2c1ncn2[C@H]1C=C[C@@H](CO)[C@@H]1CO | MT-4 |  | IIIB | 1.8 µg/mL
CCCc1cc(=O)oc2c3c(c4c(c12)OC(C)(C)CC4)O[C@@H](C)[C@H](C)[C@@H]3O | CEM + CEM-SS | RT-L100I | Oxathiin carboxanilide-resistant RT L100I | >20 µM
CCC(CC)Oc1ccc(NC(=O)c2ccccc2SSc2ccccc2C(=O)Nc2ccc(OC(CC)CC)cc2)cc1 | CEM |  |  | 22 µM
C[C@H]1CO[C@@H]2CN3C=C(C(=O)NCc4cn5ncsc5n4)C(=O)C(=O)C3C(=O)N12 | CEM-SS |  | IIIB | 0.0441 µM
Cc1cc(C)cc(C(=O)c2c(C(C)C)c(=O)[nH]c(=O)n2CC2CC=CC2)c1 | CEM |  | IIIB | 0.0004 µM
CC(C)n1c(CNC(=O)C2=CN3C[C@H]4OC[C@H](C)N4C(=O)C3C(=O)C2=O)nc2ccc(Cl)cc21 | CEM-SS |  | IIIB | 0.0353 µM
NC(=O)CCNC(=O)c1ccccc1SCc1ccc([N+](=O)[O-])o1 | PBMC |  | HT/92/599 | 8.15 µM
CO[C@H]1OC(CO[C@@H]2OC(COC(C)=O)[C@@H](OC(C)=O)[C@@H](OC(C)=O)C2S[C@@H]2OC(COC(C)=O)[C@@H](OC(C)=O)[C@@H](OC(C)=O)C2OC(C)=O)[C@@H](OC(C)=O)[C@@H](OC(C)=O)C1OC(C)=O | CEM MT-2 + CEM |  |  | >100 µg/mL
CN(C)CCCNC(=O)c1ccccc1SSc1ccccc1C(=O)NCCCN(C)C | CEM |  |  | 8.8 µM
CCc1c(Oc2cc(C)cc(C)c2)n(Cc2ccccc2)c(=O)[nH]c1=O | CEM |  | IIIB | 0.004 µM
C[C@H]1CO[C@@H]2CN3C=C(C(=O)NCc4cnc5ncccn45)C(=O)C(=O)C3C(=O)N12 | CEM-SS |  | IIIB | 0.0203 µM
COC1OC(CSC2OC(COC(C)=O)C(OC(C)=O)C(OC(C)=O)C2OC(C)=O)C(OC(C)=O)C(OC(C)=O)C1OC(C)=O | CEM MT-2 + CEM |  |  | >100 µg/mL
CC(=O)Sc1ccccc1C(=O)NCCC(N)=O | CEM |  | RF | 3.2 µM
CC[C@H](C)[C@H](NC(=O)c1ccccc1SSc1ccccc1C(=O)N[C@H](C(=O)O)[C@@H](C)CC)C(=O)O | MT-2 |  | IIIB | 6 µM
C[C@H]1CO[C@@H]2CN3C=C(C(=O)NCc4nc5cc(Cl)ccc5n4C)C(=O)C(=O)C3C(=O)N12 | CEM-SS |  | IIIB | 0.0387 µM
Cc1cc(C)cc(C(=O)c2c(C(C)C)c(=O)[nH]c(=O)n2CC2=CCCC2)c1 | CEM |  | IIIB | 0.0005 µM
C[C@H]1CO[C@@H]2CN3C=C(C(=O)NCc4nnc5ccc(Cl)nn45)C(=O)C(=O)C3C(=O)N12 | CEM-SS |  | IIIB | 0.0433 µM
Nc1ccc(NC(=O)c2ccccc2SSc2ccccc2C(=O)Nc2ccc(N)cc2)cc1 | CEM |  |  | 7.8 µM
C[C@H]1CO[C@@H]2CN3C=C(C(=O)NCc4nncn4C)C(=O)C(=O)C3C(=O)N12 | CEM-SS |  | IIIB | 0.0399 µM
COC1OC(CSC2OC(CO)C(O)C(O)C2O)C(O)C(O)C1O | CEM MT-2 + CEM |  |  | >100 µg/mL
N#Cc1ccc(NC(=O)c2ccccc2SSc2ccccc2C(=O)Nc2ccc(C#N)cc2)cc1 | CEM |  |  | 15 µM
C[C@H]1CO[C@@H]2CN3C=C(C(=O)NCc4nc5ccccc5s4)C(=O)C(=O)C3C(=O)N12 | CEM-SS |  | IIIB | 0.0334 µM

A second listing of 4 rows from above:

C[C@H]1CO[C@@H]2CN3C=C(C(=O)NCc4cn5ncsc5n4)C(=O)C(=O)C3C(=O)N12 ; cells: CEM-SS ; strain: IIIB ; result: 0.0441 µM
CC(=O)OCC1OC(SC2C(SC(C)=O)OC(COC(C)=O)C(OC(C)=O)C2OC(C)=O)C(OC(C)=O)C(OC(C)=O)C1OC(C)=O ; cells: CEM ; result: 48 µg/mL
COC1OC(CSC2OC(COC(C)=O)C(OC(C)=O)C(OC(C)=O)C2OC(C)=O)C(OC(C)=O)C(OC(C)=O)C1OC(C)=O ; cells: CEM MT-2 + CEM ; result: >100 µg/mL
Cc1cc(C)cc(Oc2c(C(C)C)c(=O)[nH]c(=O)n2CC2CC2)c1 ; cells: CEM ; strain: IIIB ; result: 0.0002 µM